In article PMC7801616, “Surface hydrophobics mediate functional dimerization of CYP121A1 of Mycobacterium tuberculosis” (Scientific Reports, 2021):

Tested on: I166A_I180A CYP121A1 heme thiolate-CO complex
Experiment: Time-course CO binding assay (P450 to P420 conversion), monomeric double mutant
Conditions: monomeric CYP121A1, saturating ligand concentration

## imidazole
  stabilization of the CO-bound 450 nm species: minimal stabilization of the 450 nm species
